According to US11597962B2 (priority 2017, dated 2023):

Assay: Peptide immobilization on glass surface, covalent versus non-covalent (fluorescence of FITC-labeled peptide)
Conditions: six spots, 10 μL

In the case of “FITC-WxEAAYQkFLA [FITC-labeled peptide, FITC-labeled 11-mer representative peptide; k is D-lysine and x is D-norleucine]”, the “average mean fluorescence intensity (MFI) of surface bound peptide” value (covalent immobilization (APTES/glutaraldehyde)) is reported as 23927±4902 and the “average mean fluorescence intensity (MFI) of surface bound peptide” value (non-covalent immobilization) is reported as 19708±3299.
